Results of single-concentration screens

From ChEMBL document CHEMBL3988442, “University of Dundee, Small-Polar-MMV Screening Library” (2021).

Mtb cholesterol medium: 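Whole-cell growth test on Mycobacterium tuberculosis, read after 4 days in a medium based on cholesterol and the lipid DPPC; the read-out is not stated. Tested at 500 µM. Higher reads as more growth inhibition (inferred: compounds with an IC50 in retests scored well above the rest). Of about 18,000 compounds tested this way, about 900 (5%) reached 50% or more in at least one test.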
Mtb glucose medium: 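Growth of Mycobacterium tuberculosis over 3 days (7H9 medium with glucose and tyloxapol); the read-out is not stated. Tested at 500 µM. Direction is inferred from retests: higher values go with more growth inhibition. Of about 18,000 compounds tested this way, about 1,400 (7.9%) reached 50% or more in at least one test.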

The filed quantity is “Percent Effect” (%).
The controls that fix the scale are not given in the record; negative values are as filed.
Many other results are left out here, so strong results are more common than in the screen.
A dash means the value is not listed here; it may have been measured.

| # | structure | Mtb cholesterol medium | Mtb glucose medium |
|---|---|---|---|
| 1 | `C[C@@H]1CCNC[C@H](C)O1` | -8.936% | - |
| 2 | `O=C(NCCCNCc1ccccc1)c1ccccn1` | - | 12.11% |
| 3 | `COC(=O)[C@H](C)NC(=O)c1csc(-c2cnccn2)n1` | 4.597% | - |
| 4 | `CCC(N)C(=O)N1CCc2ccc(OC)cc2C1` (centres unmarked) | - | 19.92% |
| 5 | `Cn1cc(NC(=O)C2=Cc3ccccc3OC2)cn1` | - | 57.23% |
| 6 | `CC(C)C1CN(C(=O)CCc2ccccn2)CCS1` (centres unmarked) | 79.32% | 75.83% |
| 7 | `OC(CN1CCCSCC1)c1ccc(F)cc1` (centres unmarked) | 28.79% | 53.55% |
| 8 | `CCOCCCNC(=O)CC#N` | - | 2.671% |
| 9 | `CC(O)c1cnc2ccccc2c1` (centres unmarked) | -6.373% | - |
| 10 | `O=C(c1cnccn1)N1CCN(Cc2ccsc2)CC1` | - | 15.57% |
| 11 | `CCN(CC)S(=O)(=O)NCCCN1CCCCCC1=O` | - | 9.498% |
| 12 | `O=C(c1ccccc1)N1CC[C@H](CO)[C@@H](O)C1` | - | 11.15% |
| 13 | `Cn1ncc(Sc2nc3ncccn3n2)c(Br)c1=O` | - | 10.65% |
| 14 | `CCN1CCCN(CC(=O)NC(C)(C#N)C(C)C)CC1` (centres unmarked) | -2.579% | - |
| 15 | `COc1ccc(-c2[nH][nH]c(=O)c2CCN)cc1` | - | -3.114% |
| 16 | `Cc1cc(C(=O)Nc2cc(C(F)(F)F)c[nH]c2=O)no1` | - | 6.65% |
| 17 | `N[C@@H]1C[C@H]1c1cccc(F)c1F` | - | 46.79% |
| 18 | `NC(=O)CC1CCN(C(=O)c2cncc(Br)c2)CC1` | - | 3.069% |
| 19 | `CC(C(=O)NC(N)=O)N(C)Cc1ccc(Br)o1` (centres unmarked) | -9.295% | 23.77% |
| 20 | `COCCC(CO)NC(=O)c1cnn(C(C)C)c1C` (centres unmarked) | 66.39% | 59.45% |
| 21 | `NC(=O)CN(Cc1ccc(Br)cc1)C(=O)c1ccco1` | 17.7% | 52.53% |
| 22 | `N[C@H]1CN(C(=O)CCCn2ccnc2)C[C@@H]1C1CC1` | -3.326% | - |
| 23 | `Cc1ncc(C(=O)N[C@H]2CC[C@H](O)CC2)c(O)c1Br` | -8.397% | - |
| 24 | `Cc1nc(CN2CCCSCC2)oc1C` | - | 26.83% |
| 25 | `OCC(O)CNc1cc(C(F)(F)F)nc2ccccc12` (centres unmarked) | - | 31.59% |
| 26 | `CN1CCN(C(=O)Cn2ccc3ccc(Br)cc32)CC1` | 75.88% | - |
| 27 | `COCC(C)Oc1ccc(Cl)cc1S(N)(=O)=O` (centres unmarked) | 11.83% | 23.74% |
| 28 | `CCC(NC(=O)Cn1cc(Cl)c(C)n1)c1ccnn1C` (centres unmarked) | - | 11.81% |
| 29 | `COC(=O)CNC(C)c1c(F)cccc1OC` (centres unmarked) | -19.62% | -16.98% |
| 30 | `CN(C)c1cc(CNC(=O)NC2CCCC2)ccn1` | - | 17.26% |
| 31 | `O=C(Nc1ccccc1)N(CCCO)C1CC1` | - | 25.04% |
| 32 | `COCCNCCNC(=O)c1noc2c1CCCC2` | -0.662% | - |
| 33 | `CC(C)C(Nc1cnn(C)c(=O)c1Cl)C(N)=O` (centres unmarked) | - | 7.487% |
| 34 | `NS(=O)(=O)C1CCN(C(=O)NCc2ccccc2)CC1` | - | 11.26% |
| 35 | `COCC(=O)N(C)Cc1cc(Br)cs1` | - | 39.7% |
| 36 | `CC(=O)N1c2ccccc2N(C)CCC1C` (centres unmarked) | -12.25% | - |
| 37 | `CC(C)c1ccc(NC(=O)CN)cc1` | 60.16% | 54.67% |
| 38 | `N[C@H]1CCN(c2ccccc2)C1` | 3.052% | 4.216% |
| 39 | `CN(c1ccccc1C(N)=O)S(C)(=O)=O` | - | 4.696% |
| 40 | `Cc1ccc(NC(=O)CN2CCCCC2=O)c(C)c1O` | -3.221% | - |
| 41 | `COC(=O)c1ccc(CSc2nc(N)cc(O)n2)cc1` | -5.755% | 9.667% |
| 42 | `CCCNC(=O)Nc1ccc2c(c1)OCCO2` | 37.74% | 33.09% |
| 43 | `NC1CCN(C(=O)c2ccncc2)C1` (centres unmarked) | -25.59% | - |
| 44 | `CNS(=O)(=O)c1ccc(C(=O)NC(C)C#N)cc1` (centres unmarked) | - | 11.57% |
| 45 | `COCCOC1CCCNC1` (centres unmarked) | -2.079% | - |
| 46 | `CCOc1cccc(CCN)n1` | 101.2% | 93.01% |
| 47 | `CC(C)(C)N(CCS(C)(=O)=O)C(=O)c1ccncc1F` | - | -3.02% |
| 48 | `COC(=O)c1ccc(CN(C)CCN2CCCC2=O)o1` | 0.6549% | - |
| 49 | `CCC=C(C)C(=O)NC1CCN(CC(=O)NC)CC1` | -23.33% | - |
| 50 | `CCNCc1cccnc1N(C)CCc1ccccn1` | - | 17.53% |
| 51 | `CN(CC(N)=O)Cc1cccc(Cl)c1` | - | 17.58% |
| 52 | `C=C(C)CNC(=O)NCCc1cnn(C)c1` | - | 7.97% |
| 53 | `CCOCCCC(=O)NCCC(=O)Nc1ccccc1` | -7.063% | - |
| 54 | `N#Cc1ccc(S(=O)(=O)NCCN)cc1C(F)(F)F` | 65.17% | 77.68% |
| 55 | `CCCC(=O)Nc1ccc(N2CCN(C)CC2)cc1C` | - | -18.18% |
| 56 | `CN(C)c1cc(CNC(=O)c2cnn(C)c2)ccn1` | - | 17.8% |
| 57 | `COc1ccccc1N1CCC(N)C1` (centres unmarked) | - | 81.65% |
| 58 | `N#CCSCC(=O)NCc1ccc(Cl)s1` | 5.8% | - |
| 59 | `CSCC(=O)N1CCCC(c2nccn2C)C1` (centres unmarked) | -13.6% | - |
| 60 | `OC1(Cn2ccnn2)CCNC1` (centres unmarked) | -14.15% | - |
| 61 | `Cc1ccc(S(=O)(=O)NCCCN)cc1Br` | - | 42.88% |
| 62 | `COCC(=O)NCc1noc(-c2cccc(C)c2)n1` | - | 49.98% |
| 63 | `N#Cc1ccc(S(=O)(=O)CC(N)=O)c(Cl)c1` | -6.83% | - |
| 64 | `CC(C)(C)OC(=O)N[C@@H]1CCCNC1` | -21.83% | - |
| 65 | `CC(=O)c1c(C)cccc1NC(=O)CN1CCCC1=O` | - | 11.75% |

The last 5 entries again:

- Cc1ccc(S(=O)(=O)NCCCN)cc1Br : Mtb glucose medium: 42.88%
- COCC(=O)NCc1noc(-c2cccc(C)c2)n1 : Mtb glucose medium: 49.98%
- N#Cc1ccc(S(=O)(=O)CC(N)=O)c(Cl)c1 : Mtb cholesterol medium: -6.83%
- CC(C)(C)OC(=O)N[C@@H]1CCCNC1 : Mtb cholesterol medium: -21.83%
- CC(=O)c1c(C)cccc1NC(=O)CN1CCCC1=O : Mtb glucose medium: 11.75%